The values that follow come from article PMC7536154, “Biochemical characterization of ferric uptake regulator (Fur) from Aliivibrio salmonicida. Mapping the DNA sequence specificity through binding studies and structural modelling”.

Weaker means in comparison with the reference protein, sequence or condition of that experiment. Tags and fusion partners may be left off the protein sequences shown.

This data set deals with T1, AsFur (ferric uptake regulator) (Aliivibrio salmonicida) (UniProt Q7AUU7).
T1 sequence (looked up): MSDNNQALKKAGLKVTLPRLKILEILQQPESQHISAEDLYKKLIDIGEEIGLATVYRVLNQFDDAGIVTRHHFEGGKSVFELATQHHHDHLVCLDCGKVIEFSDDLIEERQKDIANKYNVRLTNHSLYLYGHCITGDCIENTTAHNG
Description: EMSA. As to conditions: Mn2+ (100 uM MnCl2); EMSA: 20 mM Tris acetate pH 8.0, 1 mM MgCl2, 50 mM KCl, 1 mM DTT, 100 uM MnCl2, RT, 5 uM DNA, 0-80 uM AsFur, gel at 6 C; recombinant protein; residues 1-147.
For “AAATGATAATAATTAT / TATAATTATTATCATT [Vibrio shortened 16-mer, sticky ends (H)]”, the binding result is “binds more weakly”.

Turning to “AATGATAATAATTAT (double strand) [Vibrio shortened 15-mer (I)]”, the binding result is “binds more weakly”.

In the case of “GATAATGATAATGATAATC / ATTATCATTATCATTATCG [E. coli 3 x GATAAT, sticky ends (K)]”, the binding result is given as “binds more weakly”.

Regarding “GATAATGATAATGATAATGATAAT (double strand) [E. coli 4 x GATAAT (L)]”, the binding result is “binds more weakly”.
